Test system: tymus lymphocytes
Assay: Induction of mitochondrial non-selective pore

**Q.** What does the source list for `O=[As]c1ccccc1` (centres unmarked)?
**A.** effect of mitochondrial pore induction: release of Ca^2+ ions from mitochondria into cytoplasm; non-specific toxicity: high non-specific toxicity

From US9328130B2, “Method of treating organism by biologically active compounds specifically delivered into mitochondria, pharmaceutical composition required for the use of the method and a compound applicable for this purpose” (MITOTECH S.A., priority 2005, dated 2016)
